Reference: PubChem BioAssay AID624099 (ICCB-Longwood, 2012)

- Test: 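Host factors E2 relies on to silence an HPV18 LCR reporter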 (primary screen)
- Cells: human C33A cervical carcinoma cells (HPV-negative) stably expressing BPV1 E2 and an HPV18 LCR luciferase reporter
- Reagents: siRNA pool against human genes, 40 nM
- Timing: 72 h
- Measured: 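HPV18 LCR reporter light per well, converted to plate-wise z-scores that exclude control wells, and averaged over triplicate plates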
- Reading the numbers: mean z-score and z-score: higher = stronger reporter signal, weaker E2 silencing
- Rule for the call: 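Mean z ≥ 2 together with z ≥ 2 in two or more of the three replicates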
Here is a random part of about 21,000 deposited reagents. 497 of all reagents (2.4%) count as active. 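Higher z means weaker E2 silencing; only reporter increases were scored, and knock-downs that hurt cell survival may mask genuine repressor factors.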 Unmarked entries are inactive. The numbers tell different reagents against one gene apart.

What is on record for CABIN1 (calcineurin binding protein 1)?
mean z-score: 0.48; z-score, replicate A: 0.73; z-score, replicate B: 0.35; z-score, replicate C: 0.37

With CD37 (CD37 molecule), how do the results read?
mean z-score: 1.04; z-score, replicate A: 1.06; z-score, replicate B: 1.1; z-score, replicate C: 0.96

For RPL14 (ribosomal protein L14), what does the deposit list?
mean z-score: -4.61; z-score, replicate A: -4.81; z-score, replicate B: -4.47; z-score, replicate C: -4.55

Which result is listed for SLC35F6?
mean z-score: 1.04; z-score, replicate A: 1.19; z-score, replicate B: 1.28; z-score, replicate C: 0.65

How did the screen score TMIGD2 (transmembrane and immunoglobulin domain containing 2)?
mean z-score: 0.16; z-score, replicate A: -0.23; z-score, replicate B: 0.33; z-score, replicate C: 0.39

What is on record for CYP4V2 (cytochrome P450 family 4 subfamily V member 2)?
mean z-score: -0.72; z-score, replicate A: -0.88; z-score, replicate B: -0.72; z-score, replicate C: -0.57

Which result is listed for ITIH5 (inter-alpha-trypsin inhibitor heavy chain 5) #1?
mean z-score: -0.38; z-score, replicate A: -0.76; z-score, replicate B: -0.01; z-score, replicate C: -0.36

For ITIH5 (inter-alpha-trypsin inhibitor heavy chain 5) #2, how do the results read?
mean z-score: -0.22; z-score, replicate A: -0.23; z-score, replicate B: -0.21; z-score, replicate C: -0.21

With TRAPPC1 (trafficking protein particle complex subunit 1), how do the results read?
mean z-score: 1.53; z-score, replicate A: 1.67; z-score, replicate B: 1.72; z-score, replicate C: 1.19

What is on record for UBE4A (ubiquitination factor E4A)?
mean z-score: -0.57; z-score, replicate A: -0.4; z-score, replicate B: -0.53; z-score, replicate C: -0.76

As entered above:
For “z-score, replicate B”, ITIH5 (inter-alpha-trypsin inhibitor heavy chain 5) #1 shows -0.01
ITIH5 (inter-alpha-trypsin inhibitor heavy chain 5) #2, z-score, replicate A: -0.23
UBE4A (ubiquitination factor E4A), z-score, replicate C: -0.76

Additional records follow.
What is on record for RAP1GDS1 (Rap1 GTPase-GDP dissociation stimulator 1)?
mean z-score: 2.21 (active); z-score, replicate A: 2.34; z-score, replicate B: 1.84; z-score, replicate C: 2.44

How did the screen score MTHFR (methylenetetrahydrofolate reductase)?
mean z-score: -0.15; z-score, replicate A: -0.39; z-score, replicate B: -0.18; z-score, replicate C: 0.13

For POU2F1 (POU class 2 homeobox 1), what does the deposit list?
mean z-score: -0.6; z-score, replicate A: -0.56; z-score, replicate B: -0.63; z-score, replicate C: -0.6

Which result is listed for ZC3HC1 (zinc finger C3HC-type containing 1)?
mean z-score: 0.44; z-score, replicate A: 0.84; z-score, replicate B: 0.24; z-score, replicate C: 0.24

What is on record for MROH8 (maestro heat like repeat family member 8)?
mean z-score: -0.89; z-score, replicate A: -0.38; z-score, replicate B: -0.83; z-score, replicate C: -1.47

Which result is listed for EIF3B (eukaryotic translation initiation factor 3 subunit B)?
mean z-score: -2.71; z-score, replicate A: -2.69; z-score, replicate B: -2.89; z-score, replicate C: -2.56

What did the screen give for GJC3 (gap junction protein gamma 3)?
mean z-score: -0.27; z-score, replicate A: -0.07; z-score, replicate B: -0.3; z-score, replicate C: -0.43

What did the screen give for RARB (retinoic acid receptor beta)?
mean z-score: 1.06; z-score, replicate A: 1.1; z-score, replicate B: 0.99; z-score, replicate C: 1.09

With SLC25A53, what was measured?
mean z-score: -0.15; z-score, replicate A: -0.41; z-score, replicate B: 0.04; z-score, replicate C: -0.06

For SNX17 (sorting nexin 17), how do the results read?
mean z-score: -0.16; z-score, replicate A: -0.6; z-score, replicate B: -0.03; z-score, replicate C: 0.15

For ZW10 (zw10 kinetochore protein), what does the deposit list?
mean z-score: -0.39; z-score, replicate A: -0.22; z-score, replicate C: -0.56
